Anti-infective test results gathered from many reports (values: NIAID ChemDB through PubChem).

Shared fields: target-level tests; agent: HIV-1; target: Protease; read by: HPLC; endpoint: IC50

Conditions beyond the fields shown may differ between rows. ICn: concentration for n% inhibition.

{"structure": "O=S(=O)(O)c1cc(O)c2c(O)c(N=Nc3ccccc3S(=O)(=O)O)c(S(=O)(=O)O)cc2c1", "result": "110 µM"}
{"structure": "CCC(C)[C@H](NC(=O)CCCCCCCCCCCCCCC(=O)N[C@@H](CC(N)=O)C(=O)N[C@@H](Cc1ccccc1)C(=O)O)C(=O)N[C@@H](Cc1cc(I)c(O)c(I)c1)C(N)=O", "result": "0.74 µM"}
{"structure": "O=S(=O)(O)c1cc(Br)ccc1N=Nc1c(S(=O)(=O)O)cc2cc(S(=O)(=O)O)c(N=Nc3ccc(Br)cc3S(=O)(=O)O)c(O)c2c1O", "result": "4 µM"}
{"structure": "CCC(C)[C@H](NC(=O)CCCCCCCCCCCCCCC(=O)N[C@@H](CC(N)=O)C(=O)N[C@@H](Cc1ccc(O)cc1)C(=O)O)C(=O)N[C@@H](Cc1ccccc1)C(N)=O", "result": ">1 µM"}
{"structure": "CC(C)(C)OC(=O)N[C@@H](Cc1ccccc1)[C@H](O)CNC[C@@H](O)[C@H](Cc1ccccc1)NC(=O)SC(C)(C)C", "setting": "pH 5.5", "result": "<10 µM"}
{"structure": "CC1(C)S[C@@H]2[C@H](NC(=O)Cc3ccccc3)C(=O)N2[C@H]1C(=O)NCCNC(=O)[C@@H]1N2C(=O)[C@@H](NC(=O)Cc3ccccc3)[C@H]2SC1(C)C", "strain or isolate": "RF", "result": "0.14 µM"}
{"structure": "CC(C)[C@H](NC(=O)N(C)Cc1ccccn1)C(=O)N[C@@H](Cc1ccccc1)[C@H](O)[C@H](O)[C@H](Cc1ccccc1)NC(=O)[C@@H](NC(=O)N(C)Cc1ccccn1)C(C)C", "mutations": "PR-A71T V82A", "result": "0.0049 µM"}
{"structure": "COc1ccc(S(=O)(=O)NC(N)=NCCC[C@H](NC(=O)N[C@@H](Cc2ccccc2)C(=O)OC(C)(C)C)C(=O)N[C@H](C(=O)N[C@H](COCc2ccccc2)Cc2ccccc2)C(C)C)cc1", "result": ">100 µM"}
{"structure": "CC(C)=CCc1c(CO)cc2oc3cc(O)c(O)c(CC=C(C)C)c3c(=O)c2c1O", "result": "4.81 ± 0.32 µM"}
{"structure": "Cc1cccc(C)c1OCC(=O)N[C@@H](Cc1ccccc1)[C@H](O)C(=O)N1CSC(C)(C)[C@H]1C(=O)NC1CCc2ccccc21", "result": "<0.05 µM"}
{"structure": "C[C@H]1[C@H](C)CC[C@]2(C(=O)O)CC[C@]3(C)C(=CC[C@@]4(C)[C@@]3(C)CC[C@H]3C(C)(C)C(=O)CC[C@@]34C)[C@H]12", "result": "7.5 µM"}
{"structure": "CC(C)[C@H](NC(=O)OCc1ccccc1)C(=O)N[C@@H](Cc1ccccc1)[C@H](O)CNC[C@@H](O)[C@H](Cc1ccccc1)NC(=O)OC(C)(C)C", "setting": "pH 5.5", "result": "<10 µM"}
{"structure": "CCC(C)[C@H](NC(=O)CCCCCCCCCCCCCCC(=O)N[C@@H](CC(N)=O)C(=O)N[C@@H](Cc1ccc([N+](=O)[O-])cc1)C(=O)O)C(=O)N[C@@H](Cc1ccccc1)C(N)=O", "result": "0.868 µM"}
{"structure": "COC(=O)c1cccc(CNC(=O)[C@H]2N(C(=O)[C@@H](O)[C@H](Cc3ccccc3)NC(=O)COc3c(C)cccc3C)CSC2(C)C)c1", "result": ">0.05 µM"}
{"structure": "COc1ccc(S(=O)(=O)NC(N)=NCCC[C@H](NC(=O)N[C@@H](Cc2ccccc2)C(=O)OC(C)(C)C)C(=O)N[C@H](C(=O)N[C@H](CO)Cc2ccccc2)C(C)C)cc1", "result": "68.2 µM"}
{"structure": "COC(=O)N[C@H](C(=O)N[C@@H](Cc1ccccc1)[C@H](O)CNC[C@@H](O)[C@H](Cc1ccccc1)NC(=O)OC(C)(C)C)C(C)C", "setting": "pH 5.5", "result": "<10 µM"}
{"structure": "CC(C)[C@H](NC(=O)[C@H](CCCN=C(N)N)NC(=O)N[C@@H](Cc1ccccc1)C(=O)O)C(=O)N[C@H](CO)Cc1ccccc1", "result": "64.3 µM"}
{"structure": "COc1ccccc1CNC(=O)[C@H]1N(C(=O)[C@@H](O)[C@H](Cc2ccccc2)NC(=O)COc2c(C)cccc2C)CSC1(C)C", "result": ">0.05 µM"}
{"structure": "CC(C)CC[C@H](NC(=O)CCCCCCCCCCCCCCC(=O)N[C@@H](CC(N)=O)C(=O)N[C@@H](Cc1ccccc1)C(=O)O)C(=O)N[C@@H](Cc1ccccc1)C(N)=O", "result": "0.946 µM"}
{"structure": "CC(C)(C)OC(=O)N[C@@H](Cc1ccccc1)[C@H](O)CNC[C@@H](O)[C@H](Cc1ccccc1)NC(=O)NCc1ccccc1", "setting": "pH 5.5", "result": "~10 µM"}
{"structure": "Cc1cccc(C)c1OCC(=O)N[C@@H](Cc1ccccc1)[C@H](O)C(=O)N1CSC(C)(C)[C@H]1C(=O)NCc1ccncc1", "result": "<0.05 µM"}
{"structure": "CC(C)(C)OC(=O)N[C@@H](Cc1ccccc1)C(=O)N[C@@H](Cc1ccccc1)[C@H](O)CNC[C@@H](O)[C@H](Cc1ccccc1)NC(=O)OC(C)(C)C", "setting": "pH 5.5", "result": "~10 µM"}
{"structure": "Cc1cc(SC2=C(O)CC(CCc3ccccc3)(C(C)C)OC2=O)c(C(C)(C)C)cc1OCCO", "result": "0.00257 µM"}
{"structure": "Nc1c(N=Nc2ccc(S(=O)(=O)CCOS(=O)(=O)O)cc2)c(S(=O)(=O)O)cc2cc(S(=O)(=O)O)c(N=Nc3ccc(S(=O)(=O)CCOS(=O)(=O)O)cc3)c(O)c12", "result": "100 µM"}
{"structure": "Cc1c(O)cccc1C(=O)N[C@@H](Cc1ccccc1)[C@H](O)C(=O)N1CSC(C)(C)[C@H]1C(=O)NN(C)c1ccccc1", "result": ">0.05 µM"}
{"structure": "CCNC(=O)[C@@H](NC(=O)Cc1ccccc1)[C@@H]1N[C@@H](C(=O)NCCNC(=O)[C@@H]2N[C@@H]([C@H](NC(=O)Cc3ccccc3)C(=O)NCC)SC2(C)C)C(C)(C)S1", "strain or isolate": "RF", "result": "0.0048 µM"}
{"structure": "CCC(C)[C@H](NC(=O)CCCCCCCCCCCCCCC(=O)N[C@@H](Cc1ccc(N)cc1)C(=O)N[C@@H](Cc1ccccc1)C(=O)O)C(=O)N[C@@H](Cc1ccccc1)C(N)=O", "result": "1.2 µM"}
{"structure": "CC(C)[C@H](NC(=O)OCc1ccccc1)C(=O)N[C@@H](Cc1ccccc1)[C@H](O)CNC[C@@H](O)[C@H](Cc1ccccc1)NC(=O)[C@H](CC(N)=O)NC(=O)OC(C)(C)C", "setting": "pH 5.5", "result": "10 µM"}
{"structure": "Cc1c(O)cccc1C(=O)N[C@@H](Cc1ccccc1)[C@H](O)C(=O)N1CSC(C)(C)[C@H]1C(=O)NC1C2CC3CC(C2)CC1C3", "result": ">0.05 µM"}
{"structure": "CC(C)(C)OC(=O)N[C@@H](Cc1ccccc1)[C@H](O)CNC[C@@H](O)[C@H](Cc1ccccc1)NC(=O)OC1COC[C@@H]1O", "setting": "pH 5.5", "result": "<10 µM"}
{"structure": "NC(=O)C[C@H](NC(=O)CCCCCCCCCCCCCCC(=O)N[C@@H](CC1CCCCC1)C(=O)N[C@@H](Cc1ccccc1)C(N)=O)C(=O)N[C@@H](Cc1ccccc1)C(=O)O", "result": ">1 µM"}
{"structure": "CC(C)CN(C[C@@H](O)[C@H](Cc1ccccc1)NC(=O)[C@H](CC(N)=O)NC(=O)c1ccc2ccccc2n1)C(=O)NC(C)(C)C", "result": "0.0023 µM"}
{"structure": "Cc1cc(C)c(CNC(=O)[C@H]2N(C(=O)[C@@H](O)[C@H](Cc3ccccc3)NC(=O)COc3c(C)cccc3C)CSC2(C)C)c(=O)[nH]1", "result": ">0.05 µM"}
{"structure": "Cc1cc(N=Nc2ccc(N=Nc3ccc(S(=O)(=O)O)cc3)cc2)cc(C(=O)O)c1O", "result": "25 µM"}
{"structure": "Cc1cccc(C)c1OCC(=O)N[C@@H](Cc1ccccc1)[C@H](O)C(=O)N1CSC(C)(C)[C@H]1C(=O)NCc1ccccn1", "result": "<0.05 µM"}
{"structure": "CC(C)[C@H](NC(=O)OCc1ccccc1)C(=O)N[C@@H](Cc1ccccc1)[C@@H](O)CNC[C@@H](O)[C@H](Cc1ccccc1)NC(=O)OC(C)(C)C", "setting": "pH 5.5", "result": "10 µM"}
{"structure": "CCC(C)[C@H](NC(=O)CCCCCCCCCCCCCCC(=O)N[C@@H](CC(N)=O)C(=O)N[C@@H](Cc1ccccc1)C(=O)O)C(=O)N[C@@H](Cc1ccc(-c2ccccc2)cc1)C(N)=O", "result": "0.545 µM"}
{"structure": "COc1ccccc1CNC(=O)[C@H]1N(C(=O)[C@@H](O)[C@H](Cc2ccccc2)NC(=O)c2cccc(O)c2C)CSC1(C)C", "result": "<0.05 µM"}